Pooled drug test results. Numbers come from NIAID ChemDB, via PubChem.

Shared fields: tests in culture; organism: HIV-1; read by: cytopathic effect / MTT; measure: EC50

An empty or dashed field is not shown. a–b is a range or a potency band. ECn is the concentration giving n% inhibition of infection, replication or growth. Conditions beyond the fields shown may differ between rows.

SMILES	cells	strain	changes	value
Cn1c2ccccc2c2c1cc(C#N)c(=O)n2-c1ccc([N+](=O)[O-])cc1	MT-4	B	RT-K103N	0.03 µM
CCc1c(Cc2cccc(Cc3nc(SC)n(C)c(=O)c3CC)c2)nc(SC)n(C)c1=O	MT-4	NNRTI-resistant	RT-Y181C	>100 µM
C#C/C(C)=C/CN1Cc2cccc3[nH]c(=O)n(c23)CC1C	MT-4	IIIB		>18 µM
NC(N)=NCCC[C@H](NC(=O)CCNC(=O)CN(CCNC(=O)CN(CCNC(=O)OCc1ccccc1)C(=O)Cn1cnc2c(=O)[nH]c(N)nc21)C(=O)Cn1cnc2c(N)ncnc21)C(=O)O	PBMC/IIIB + PBMC			3.5 µM
CCOCn1c(Cc2cccc(Cc3[nH]c(=O)[nH]c(=O)c3CC)c2)c(CC)c(=O)[nH]c1=O	MT-4	NNRTI-resistant	RT-Y181C	>100 µM
COc1ncnc(NS(=O)(=O)c2ccc(N=C3C(=O)N(CN4CCCC4)c4ccccc43)cc2)c1OC	MT-4	LAI		>2 µg/mL
CCc1c(Cc2cccc(Cc3nc(N4CCCCC4)[nH]c(=O)c3CC)c2)nc(N2CCCCC2)[nH]c1=O	MT-4			>75 µM
CN1c2ccccc2C2C1C=CC(=O)N2c1ccc(/C(N)=N/O)cc1	MT-4	LAI		1–32 µM
NC(N)=NCCC[C@H](NC(=O)CCNC(=O)CN(CCNC(=O)CN(CCNC(=O)OCc1ccccc1)C(=O)Cn1cnc2c(N)ncnc21)C(=O)Cn1cnc2c(=O)[nH]c(N)nc21)C(=O)O	PBMC/IIIB + PBMC			11 µM
CC1Cn2c(=O)[nH]c3cccc(c32)CN1CC#N	MT-4	IIIB		>508 µM
COC(=O)[C@H](CCCN=C(N)N)NC(=O)CCNC(=O)CN(CCNC(=O)CN(CCNC(=O)OCc1ccccc1)C(=O)Cn1cnc2c(=O)[nH]c(N)nc21)C(=O)Cn1cnc2c(N)ncnc21	PBMC/IIIB + PBMC			>200 µM
CCc1nc(NCN2C(=O)C(=Nc3ccc(S(=O)(=O)Nc4ncnc(OC)c4OC)cc3)c3cc(C)ccc32)nc(N)c1-c1ccc(Cl)cc1	MT-4	LAI		>8 µg/mL
Cc1cc(C)c(CS(=O)c2cccc[n+]2[O-])c(C)c1	C8166	IIIB		>40 µg/mL
Cc1cn([C@H]2C=C[C@@H](CO)O2)c(=O)[nH]c1=O	MT-4	IIIB		0.65 µM
CC(C)[C@@H]1CC[C@@H](C)C[C@H]1O[C@@H]1O[C@H](COS(=O)(=O)O)[C@@H](OS(=O)(=O)O)[C@H](O[C@@H]2O[C@H](COS(=O)(=O)O)[C@@H](OS(=O)(=O)O)[C@H](O[C@@H]3O[C@H](COS(=O)(=O)O)[C@@H](OS(=O)(=O)O)[C@H](O[C@@H]4O[C@H](COS(=O)(=O)O)[C@@H](OS(=O)(=O)O)[C@H](O[C@@H]5O[C@H](COS(=O)(=O)O)[C@@H](OS(=O)(=O)O)[C@H](OS(=O)(=O)O)[C@H]5OS(=O)(=O)O)[C@H]4OS(=O)(=O)O)[C@H]3OS(=O)(=O)O)[C@H]2OS(=O)(=O)O)[C@H]1OS(=O)(=O)O	MT-4	IIIB		0.6 µg/mL
COc1ncnc(NS(=O)(=O)c2ccc(N=C3C(=O)N(CN4CCNCC4)c4ccccc43)cc2)c1OC	MT-4	LAI		>2 µg/mL
CCCCCCCCO[C@@H]1O[C@H](COS(=O)(=O)O)[C@@H](OS(=O)(=O)O)[C@H](O[C@@H]2O[C@H](COS(=O)(=O)O)[C@@H](OS(=O)(=O)O)[C@H](O[C@@H]3O[C@H](COS(=O)(=O)O)[C@@H](OS(=O)(=O)O)[C@H](O[C@@H]4O[C@H](COS(=O)(=O)O)[C@@H](OS(=O)(=O)O)[C@H](O[C@@H]5O[C@H](COS(=O)(=O)O)[C@@H](OS(=O)(=O)O)[C@H](OS(=O)(=O)O)[C@H]5OS(=O)(=O)O)[C@H]4OS(=O)(=O)O)[C@H]3OS(=O)(=O)O)[C@H]2OS(=O)(=O)O)[C@H]1OS(=O)(=O)O	MT-4	IIIB		1.1 µg/mL
COc1ncnc(NS(=O)(=O)c2ccc(N=C3C(=O)N(CN4CCCC4)c4ccc(C)cc43)cc2)c1OC	MT-4	LAI		>10.1 µg/mL
CC(CO[C@@H]1O[C@H](COS(=O)(=O)O)[C@@H](OS(=O)(=O)O)[C@H](O[C@@H]2O[C@H](COS(=O)(=O)O)[C@@H](OS(=O)(=O)O)[C@H](O[C@@H]3O[C@H](COS(=O)(=O)O)[C@@H](OS(=O)(=O)O)[C@H](O[C@@H]4O[C@H](COS(=O)(=O)O)[C@@H](OS(=O)(=O)O)[C@H](O[C@@H]5O[C@H](COS(=O)(=O)O)[C@@H](OS(=O)(=O)O)[C@H](OS(=O)(=O)O)[C@H]5OS(=O)(=O)O)[C@H]4OS(=O)(=O)O)[C@H]3OS(=O)(=O)O)[C@H]2OS(=O)(=O)O)[C@H]1OS(=O)(=O)O)CC(C)(C)C	MT-4	IIIB		0.42 µg/mL
N#CC1=CC2C(c3ccccc3N2Cc2cccnc2)N(c2ccc([N+](=O)[O-])cc2)C1=O	MT-4	LAI		1–32 µM
CCCCCCCCCCO[C@@H]1O[C@H](COS(=O)(=O)O)[C@@H](OS(=O)(=O)O)[C@H](O[C@@H]2O[C@H](COS(=O)(=O)O)[C@@H](OS(=O)(=O)O)[C@H](O[C@@H]3O[C@H](COS(=O)(=O)O)[C@@H](OS(=O)(=O)O)[C@H](O[C@@H]4O[C@H](COS(=O)(=O)O)[C@@H](OS(=O)(=O)O)[C@H](O[C@@H]5O[C@H](COS(=O)(=O)O)[C@@H](OS(=O)(=O)O)[C@H](OS(=O)(=O)O)[C@H]5OS(=O)(=O)O)[C@H]4OS(=O)(=O)O)[C@H]3OS(=O)(=O)O)[C@H]2OS(=O)(=O)O)[C@H]1OS(=O)(=O)O	MT-4	IIIB		1.1 µg/mL
C=C(CN1Cc2cccc3[nH]c(=O)n(c23)CC1C)C(=O)OCC	MT-4	IIIB		>3 µM
CCCCCCCCO[C@@H]1O[C@H](COS(=O)(=O)O)[C@@H](OS(=O)(=O)O)[C@H](O[C@@H]2O[C@H](COS(=O)(=O)O)[C@@H](OS(=O)(=O)O)[C@H](O[C@@H]3O[C@H](COS(=O)(=O)O)[C@@H](OS(=O)(=O)O)[C@H](O[C@@H]4O[C@H](COS(=O)(=O)O)[C@@H](OS(=O)(=O)O)[C@H](OS(=O)(=O)O)[C@H]4OS(=O)(=O)O)[C@H]3OS(=O)(=O)O)[C@H]2OS(=O)(=O)O)[C@H]1OS(=O)(=O)O	MT-4	IIIB		25 µg/mL
CN1c2ccccc2C2C1C=CC(=O)N2c1ccc(-c2noc(-c3ccco3)n2)cc1	MT-4	LAI		1–32 µM
CCOCCOCCOCCO[C@@H]1O[C@H](COS(=O)(=O)O)[C@@H](OS(=O)(=O)O)[C@H](O[C@@H]2O[C@H](COS(=O)(=O)O)[C@@H](OS(=O)(=O)O)[C@H](O[C@@H]3O[C@H](COS(=O)(=O)O)[C@@H](OS(=O)(=O)O)[C@H](O[C@@H]4O[C@H](COS(=O)(=O)O)[C@@H](OS(=O)(=O)O)[C@H](O[C@@H]5O[C@H](COS(=O)(=O)O)[C@@H](OS(=O)(=O)O)[C@H](OS(=O)(=O)O)[C@H]5OS(=O)(=O)O)[C@H]4OS(=O)(=O)O)[C@H]3OS(=O)(=O)O)[C@H]2OS(=O)(=O)O)[C@H]1OS(=O)(=O)O	MT-4	IIIB		110 µg/mL
NC(N)=NCCC[C@H](NC(=O)CCCCCNC(=O)CN(CCNC(=O)CN(CCNC(=O)OCc1ccccc1)C(=O)Cn1cnc2c(=O)[nH]c(N)nc21)C(=O)Cn1cnc2c(N)ncnc21)C(=O)O	PBMC/IIIB + PBMC			>200 µM

A second listing of 3 rows from above:

{"SMILES": "C#C/C(C)=C/CN1Cc2cccc3[nH]c(=O)n(c23)CC1C", "cells": "MT-4", "strain": "IIIB", "value": ">18 µM"}
{"SMILES": "CCOCCOCCOCCO[C@@H]1O[C@H](COS(=O)(=O)O)[C@@H](OS(=O)(=O)O)[C@H](O[C@@H]2O[C@H](COS(=O)(=O)O)[C@@H](OS(=O)(=O)O)[C@H](O[C@@H]3O[C@H](COS(=O)(=O)O)[C@@H](OS(=O)(=O)O)[C@H](O[C@@H]4O[C@H](COS(=O)(=O)O)[C@@H](OS(=O)(=O)O)[C@H](O[C@@H]5O[C@H](COS(=O)(=O)O)[C@@H](OS(=O)(=O)O)[C@H](OS(=O)(=O)O)[C@H]5OS(=O)(=O)O)[C@H]4OS(=O)(=O)O)[C@H]3OS(=O)(=O)O)[C@H]2OS(=O)(=O)O)[C@H]1OS(=O)(=O)O", "cells": "MT-4", "strain": "IIIB", "value": "110 µg/mL"}
{"SMILES": "COc1ncnc(NS(=O)(=O)c2ccc(N=C3C(=O)N(CN4CCNCC4)c4ccccc43)cc2)c1OC", "cells": "MT-4", "strain": "LAI", "value": ">2 µg/mL"}